For part of these data: At least one result comes from cells or an extract, where the contact may be indirect. Tags and fusion partners may be left off the protein sequences shown. For part of these data: Construct, isoform or probe ends are uncertain for at least one entry.
What was measured:
[1] = tested on: T1, Plasmodium falciparum topoisomerase I (pfTopoI), blood lysate (Plasmodium falciparum); test: binding assay; settings: 37 C, protein in an extract
T1 sequence (limits assumed): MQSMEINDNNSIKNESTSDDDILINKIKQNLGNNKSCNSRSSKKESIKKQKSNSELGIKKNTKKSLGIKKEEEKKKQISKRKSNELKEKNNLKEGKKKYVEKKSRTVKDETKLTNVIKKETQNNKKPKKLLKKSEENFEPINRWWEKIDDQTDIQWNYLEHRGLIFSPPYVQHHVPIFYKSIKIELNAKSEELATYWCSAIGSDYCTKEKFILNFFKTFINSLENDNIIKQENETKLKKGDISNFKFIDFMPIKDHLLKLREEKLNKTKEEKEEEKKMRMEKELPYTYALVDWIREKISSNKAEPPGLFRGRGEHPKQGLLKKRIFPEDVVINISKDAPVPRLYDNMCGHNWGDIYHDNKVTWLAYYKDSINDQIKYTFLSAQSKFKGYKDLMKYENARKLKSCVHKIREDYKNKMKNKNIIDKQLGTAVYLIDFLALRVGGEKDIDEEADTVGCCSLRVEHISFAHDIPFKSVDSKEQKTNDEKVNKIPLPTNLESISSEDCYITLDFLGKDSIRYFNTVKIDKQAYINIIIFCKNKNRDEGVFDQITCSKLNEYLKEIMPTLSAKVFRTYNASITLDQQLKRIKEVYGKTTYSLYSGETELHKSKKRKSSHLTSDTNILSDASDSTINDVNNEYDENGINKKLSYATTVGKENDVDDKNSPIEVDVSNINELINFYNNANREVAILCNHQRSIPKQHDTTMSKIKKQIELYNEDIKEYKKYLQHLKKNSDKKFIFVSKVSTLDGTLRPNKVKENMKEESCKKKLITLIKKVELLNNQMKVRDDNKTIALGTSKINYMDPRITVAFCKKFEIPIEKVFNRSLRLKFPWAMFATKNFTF

[2] = tested on: T2, Plasmodium falciparum topoisomerase I (pfTopoI) (Plasmodium falciparum); test: activity assay; settings: 5' amino-C6-T on both strands, SEQ:1 strand covalently immobilised; SHOfLE cleavage-ligation, silver stain; 10 mM Tris pH 7.5, 1 mM EDTA, 300 mM NaCl, 37 C; purified recombinant protein; protein details: expressed in yeast from pYES2.1
T2 sequence (limits assumed): T1 sequence (limits assumed)

| Sequence | binding result ([1]; amine-linked SEQ:3 strand immobilised on CodeLink slide, one-step assay, detection below 5 parasites/ul, TEN3 buffer) | binding result ([1]; 5' amino-C6-T on both strands, SEQ:1 strand covalently immobilised, infected blood lysates compared with uninfected, SHOfLE, EDTA, 300 mM NaCl) | activity on this sequence [2] |
| --- | --- | --- | --- |
| ACTACCATTCTGAGTCGTTCGATCTAAAAGACTTAGA / ATTTTTCTAAGTCTTTTAGATCGAACGACTCAGAATGATGCATGTATACTAAACTCACAAATTAGAGC | binds | – | – |
| ACTACCATTCTGAGTCGTTCGAAGTTCCTATACTTT / TCTAGAAAGTATAGGAACTTCGAACGACTCAGAATG [pfTopoI SHOfLE substrate duplex] | – | binds | active |

Source: patent US20170137895
